The test system of this data set is T1, XisF4 (native excisionase) (Pseudomonas aeruginosa PAO1).
T1 sequence (looked up): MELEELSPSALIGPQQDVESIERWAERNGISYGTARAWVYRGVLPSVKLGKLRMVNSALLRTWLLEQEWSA
Put plainly: EMSA. Conditions: recombinant protein; residues 1-71; protein details: His6 (pET28a); probe letters rebuilt from the primers and the genome.

Where a protein sequence is shown, tags need not be part of it.

With “CTGACCGTCCGACTCGATACTGACGCGAATTTGATGGCTGATTTTCTTCATCTTTAACGATCCAAATTGGTACGAATTGAAACCGCAATAGGTGGCTTATCTGACGTGTTACAGGGGCGTCGGCCGCGCCTTCGGCCTATCGCTCATGCCTTGCGCTCCCGGCCGGCGGCGCGGCCCGCCCCTCATGGCGGCACCCCTACCGCCGCTAGCGCCGTCATCACCGTCCACCAGTGATGCAGCGCCCAGCCCATCGCCACCGGGGCGAGGAATTCCCAATCGATCATTTCTGCCTCCAGGGCCGCGAGGCGTATTCGGAATCGGGGACGATGGTCAGCGGCGACTGCCCCCTGGCCGGTGCGTCTGCGGAGGCGGCAACAGGCGCTGCCGGAACGATGCTGGCCACCGCGCCGGGCTGCCTCCCGGTACAGGTGACGGTCTGTTTCCACTCCTCATAGCGAAGCTCTACGACGCACTCGCCCTTGGGCGTTACCCGGTAGCCGGAGCCGATCAGTTGCCAACTGGTGAGTTCCAGG (double strand) [pa0727 (int4) promoter]”, the binding result was “binds”.

The record behind these values is paper PMC11307329.
